Measured values from several laboratories, pooled; numbers as filed in NIAID ChemDB.

Common to all: whole-cell or culture tests; species: Mycobacterium tuberculosis

Inhibition is in % at the dose shown (toxicity tests: loss of growth or viability). Blank or dashed fields: not listed here. Neighbouring rows are from separate reports. MIC50, MIC90 and the like: level of inhibition, or share of isolates inhibited. a–b is a range or a potency band. MIC bound comes from a single tested concentration. ECn is the concentration giving n% inhibition of infection, replication or growth.

smiles | tested at | read by | measure | setting | strain | value
CO[C@H]1/C=C/O[C@@]2(C)Oc3c(C)c(O)c4c(O)c(c5c(c4c3C2=O)NC2(N=5)C3CC4C[C@H]2CN(C4)C3)=NC(=O)/C(C)=C\C=C\[C@H](C)[C@H](O)[C@@H](C)[C@@H](O)[C@@H](C)[C@H](OC(C)=O)[C@@H]1C |  | GFP | MIC90 |  |  | 10 µg/mL
CC(NC(=O)C(Cc1c[nH]c2ccccc12)NC(=O)OC(C)(C)C)C(=O)NN | 12.5 µg/mL | BACTEC | inhibition |  | H37Rv | 5%
Cc1ccc(/C=N/NC(=O)c2ccncc2)cc1 |  |  | MIC |  |  | 0.1 µg/mL
CC1=C(C(=O)Nc2ccc([N+](=O)[O-])cc2)C(c2ccc(N(C)C)cc2)C(C(=O)Nc2ccc([N+](=O)[O-])cc2)=C(C)N1 | 2.5 µg/mL |  | inhibition |  | H37Rv | 97%
O=C1c2ccccc2S(=O)(=O)N1CSC(=S)N1CCCCC1 | 6.25 µg/mL |  | inhibition |  | H37Rv | 99%
O=[N+]([O-])c1cn2c(n1)OC[C@@H](OCc1ccc(Oc3ccc(C(F)(F)F)nc3)nc1)C2 |  | low oxygen | MIC90 |  |  | 8.6 µM
NCCCC(N)CC(=O)NCC1NC(=O)C(CO)NC(=O)C(NC(=O)CC(N)CCCN)CNC(=O)C(C2CCN=C(N)N2)NC(=O)/C(=C/NC(N)=O)NC1=O |  |  | MIC |  | Isolate VIM-R/6 | 5 µg/mL
O=C(N/N=C/[C@H](O)[C@@H](O)[C@H](O)[C@H](O)CO)c1ccncc1 |  |  | MIC |  |  | 0.1–1 µg/mL
CC(C)NNC(=O)C(N)CCC(=O)O |  | BACTEC | MIC bound |  | H37Rv | >12.5 µg/mL
Cc1cc(=O)n2[nH]c(Nc3ccc(Cl)cc3)c(C(=O)Nc3ccccc3)c2n1 |  | resazurin | MIC |  | H37Rv | 50 µg/mL
CO[C@H]1/C=C/O[C@@]2(C)Oc3c(C)c(O)c4c(O)c(c5c(c4c3C2=O)NC2(CC3CCC(C2)N3C)N=5)=NC(=O)/C(C)=C\C=C\[C@H](C)[C@H](O)[C@@H](C)[C@@H](O)[C@@H](C)[C@H](OC(C)=O)[C@@H]1C |  | GFP | MIC90 |  |  | 10 µg/mL
COc1ccc(-c2coc3c4c(ccc3c2=O)OC(C)(C)C=C4)cc1 |  | BACTEC | MIC |  | H37Rv | ≥12.5 µg/mL
CC1=C(C(=O)Nc2cccc([N+](=O)[O-])c2)C(c2ccccc2O)C(C(=O)Nc2cccc([N+](=O)[O-])c2)=C(C)N1 | 2.5 µg/mL |  | inhibition |  | H37Rv | 92%
O=C(N/N=C/c1ccco1)c1cccnc1 |  |  | MIC |  |  | 10 µg/mL
Cc1ccc(-c2cnnc(N3CCC(c4cccc(F)c4)C3)n2)o1 |  | low oxygen | MIC |  | H37Rv-CV-lux-AB | 47.9 µM
NC1=NN(c2ccccc2)C(=O)C1/C(=N/NC(=O)c1cc2ccccc2cc1O)C(=O)Nc1cccc(C(F)(F)F)c1 |  | resazurin | MIC bound |  | H37Rv | >6.25 µg/mL
O=[N+]([O-])c1cn2c(n1)OC[C@@H](OCc1ccnc(N3CCN(c4ccc(OC(F)(F)F)cc4)CC3)c1)C2 |  | resazurin | MIC90 |  |  | 0.17 µM
Cc1cc(C(=O)NN)c2ccccc2n1 |  |  | MIC |  |  | 10 µg/mL
CN(C)c1ccc(/C=N/NC(=O)c2ccccc2NC(=O)c2ccccc2Cl)cc1 | 12.5 µg/mL | BACTEC | inhibition |  | H37Rv | 6%
O=C(N/N=C/c1cc(O)ccc1O)c1cccnc1 |  | broth dilution / resazurin | MIC |  | H37Rv | 1.04 µg/mL
COC(=O)CC1OCC=C2CN3CCC45C6=CC(=O)C(=O)C([N+](=O)[O-])=C6NC4C1C2CC35 |  |  | MIC bound |  | H37Rv | >6.25 µg/mL
CO[C@H]1/C=C/O[C@@]2(C)Oc3c(C)c(O)c4c(O)c(c5c(c4c3C2=O)N[C@]2(CC[C@@H]3CC[C@H](C2)N3C)N=5)=NC(=O)/C(C)=C\C=C\[C@H](C)[C@H](O)[C@@H](C)[C@@H](O)[C@@H](C)[C@H](OC(C)=O)[C@@H]1C |  | GFP | MIC90 |  |  | 10 µg/mL
O=C(O)c1cn(C2CC2)c2cc(N3CCNCC3)c(F)cc2c1=O |  | resazurin | MIC |  | H37Rv | 3.12 µg/mL
NNC(=O)c1ccncc1 |  | resazurin | MIC |  | CF45 | >25 µg/mL
Cc1c(Cc2ccccc2Cl)c(=O)n2c([nH]c3ccccc32)c1C#N |  | broth dilution | MIC |  | H37Rv | >128 µg/mL
Cc1ccc(Nc2[nH]n3c(=O)cc(C)nc3c2C(=O)Nc2ccc(F)c(Cl)c2)cc1 |  | resazurin | MIC |  | H37Rv | 12.5 µg/mL
CC(=O)N1CCNC(=O)/C1=C1\CCOC1=O | 12.5 µg/mL | BACTEC | inhibition |  | H37Rv | 13%
Cc1ccc(Nc2[nH]n3c(=O)cc(C)nc3c2C(=O)Nc2ccc(F)cc2)c(C)c1 |  | resazurin | MIC |  | H37Rv | 50 µg/mL
O=[N+]([O-])c1cn2c(n1)OC[C@@H](OCc1ccc(Cc3ccc(C(F)(F)F)nc3)cc1)C2 |  | resazurin | MIC90 |  |  | 0.045 µM
O=C(NN=C1CCCC1)c1ccncc1 |  |  | MIC |  |  | 0.1 µg/mL
NNC(=O)c1ccc(OCc2nc3ccccc3[nH]2)cc1 |  | BACTEC | MIC bound |  | H37Rv | >12.5 µg/mL
NC(=O)c1cnccn1 |  |  | MIC |  | H6927 | 30 µg/mL
CCN(CC)CCNC(=O)c1ccc(Cl)cc1 |  |  | MIC |  | H37Rv | 50 µg/mL
CCCCOC(=S)SCN1C(=O)c2ccccc2S1(=O)=O | 6.25 µg/mL |  | inhibition |  | H37Rv | 99%
NC(=O)N/C=C1\NC(=O)C(CO)NC(=O)C(CO)NC(=O)C(N)CNC(=O)C(C2CCN=C(N)N2)NC1=O |  |  | MIC |  | H37Rv | 5 µg/mL
CN=c1sc2c(n1C)C(=O)c1ccccc1C2=O | 12.5 µg/mL | BACTEC | inhibition |  | H37Rv | 100%
O=[N+]([O-])c1cn2c(n1)OC[C@@H](OCc1ccc(C#Cc3ccc(C(F)(F)F)cc3)cc1)C2 |  | low oxygen | MIC90 |  |  | >128 µM
O=C1N(Cl)C(=O)C(c2ccc(Cl)cc2)(c2ccc(Cl)cc2)N1Cl | 12.5 µg/mL | BACTEC | inhibition |  | H37Rv | 0%
CCCN1C2CCC1CC1(C2)N=C2C(=C3NC(=O)/C(C)=C\C=C\[C@H](C)[C@H](O)[C@@H](C)[C@@H](O)[C@@H](C)[C@H](OC(C)=O)[C@H](C)[C@@H](OC)/C=C/O[C@@]4(C)OC5=C(C)C(O)C(C3=O)C2=C5C4=O)N1 |  | GFP | MIC90 |  |  | 10 µg/mL
O=[N+]([O-])c1cn2c(n1)OC[C@@H](OCc1ccc(Oc3ccc(C(F)(F)F)cc3)cc1)C2 |  | resazurin | MIC90 |  |  | 0.04 µM
N[C@@H]1CN(c2c(F)cc3c(=O)c(C(=O)O)cn([C@@H]4C[C@@H]4F)c3c2Cl)CC12CC2 |  |  | MIC50 |  | 25 strains | 0.1 µg/mL
CC(C)COC(=S)SCN1C(=O)c2ccccc2S1(=O)=O | 6.25 µg/mL |  | inhibition |  | H37Rv | 78%
CN[C@@H]1[C@H](O[C@H]2[C@H](O[C@H]3[C@H](O)[C@@H](O)[C@H](N=C(N)N)[C@@H](O)[C@@H]3N=C(N)N)O[C@@H](C)[C@]2(O)C=O)O[C@@H](CO)[C@H](O)[C@H]1O |  | resazurin | MIC |  | H37Rv | 6.25 µg/mL
Cc1ccc2c(c1)nc1cc(Nc3ccc(Cl)cc3)c(=NC3CCCCCCC3)cc-1n2-c1ccc(Cl)cc1 |  |  | MIC |  | H37Rv (EB-resistant) | 0.1 µg/mL
O=C1OCC23CC(=O)C(O)(c4oc(CO)cc(=O)c4O)C(CC12)O3 | 12.5 µg/mL | BACTEC | inhibition |  | H37Rv | 8%
COc1ccc(O[C@@H]2C=CC(=O)[C@@H](CO)O2)cc1 |  | BACTEC / radiometric | MIC |  | H37Rv | >25 µg/mL
NNC(=O)c1ccncc1 |  |  | MIC |  | H37Rv (ATCC 27294) | 0.16 µg/mL
Cc1cc(=O)n2[nH]c(Nc3ccc(Cl)c(Cl)c3)c(C(=O)Nc3cccc(C)c3C)c2n1 |  | resazurin | MIC |  | H37Rv | 50 µg/mL
CC(=O)Nc1ccc(C(=O)N[C@@H]2C(=O)N3C2SC(C)(C)C3C(=O)O)cn1 |  | BACTEC | MIC |  | H37Rv | ≥12.5 µg/mL
O=[N+]([O-])c1cn2c(n1)OC[C@@H](OCc1ccc(-c3ccc(Oc4ccc(F)cc4)nc3)cc1)C2 |  | low oxygen | MIC90 |  |  | 0.8 µM
COc1ccccc1NC(=O)C1=C(C)NC(C)=C(C(=O)Nc2ccccc2OC)C1c1ccc(SC)cc1 |  |  | EC50 |  | H37Rv | <2.5 µg/mL
C=C(C)[C@@H]1CC[C@]2(C(=O)O)CC[C@]3(C)C(CCC4[C@@]5(C)C[C@@H](OC(=O)/C=C/c6ccc(O)cc6)[C@H](O)C(C)(C)[C@@H]5CC[C@]43C)C12 |  |  | MIC |  |  | 12.5 µg/mL
NC(=O)c1cnccn1 |  | resazurin | MIC |  | H37Rv | 3.12 µg/mL
c1ccc(P(c2ccccc2)c2ccccn2)cc1 |  | broth dilution / visual reading | MIC99 | 7 d | H37Rv | 160 µM
COc1ccc(Cc2cc(N=NC(N)=O)c(C)cc2O)cc1 | 12.5 µg/mL | BACTEC | inhibition |  | H37Rv | 61%
COc1ccc(Cc2c(C)c(C#N)c3[nH]c4ccccc4n3c2=O)cc1 |  | resazurin | MIC90 |  | KZN494 | 0.5 µg/mL
O=[N+]([O-])c1cn2c(n1)OC[C@@H](OCc1ccc(Oc3ccc(F)cc3)cn1)C2 |  | resazurin | MIC90 |  |  | 0.09 µM
COc1ccc2c(c1)C13CCN4CC5=CCOC6CC(=O)N2C1C6C5CC43 |  | BACTEC | MIC bound |  | H37Rv | >12.5 µg/mL
O=C(N/N=C/c1ccccc1O)c1cccnc1 |  |  | MIC |  |  | 100 µg/mL
Cc1ccc(Nc2[nH]n3c(=O)cc(C)nc3c2C(=O)Nc2ccccc2)cc1 |  | resazurin | MIC |  | H37Rv | 100 µg/mL
O=C(NN=C1CCCCC1)c1cccnc1 |  |  | MIC |  |  | 10 µg/mL
C=C(C)CC[C@H]1CN(c2ccn(N3CCOCC3)c2)C(=O)O1 |  |  | MIC90 |  | C.I.1104 | >100 µM
O=C(N/N=C/c1ccc2c(c1)OCO2)c1cccnc1 |  |  | MIC |  |  | 10 µg/mL
CCN(CC)CCNC(=O)c1ccc([N+](=O)[O-])cc1 |  |  | MIC |  | N353 | 50 µg/mL
CC1=C(C(=O)Nc2ccc(C)cc2C)C(c2ccccc2)C(C(=O)Nc2ccc(C)cc2C)=C(C)N1 | 2.5 µg/mL |  | inhibition |  | H37Rv | 12%
CCOC(=S)SCN1C(=O)c2ccccc2S1(=O)=O |  |  | MIC |  | H37Rv | 6.25 µg/mL
S=C1N(c2ccc(Cl)cc2)C2=C(N=Nc3ccccc3)C(=Nc3ccccc3S2)N1c1ccccn1 |  | BACTEC | MIC |  | H37Rv | ≥12.5 µg/mL
NNC(=O)c1ccncc1 |  | broth dilution / resazurin | MIC |  | H37Rv | 0.91 µg/mL
Cc1cc2nc3ccc(N=Nc4ccc(N(C)C)cc4)cc3n(-c3ccccc3)c-2cc1=N |  |  | MIC |  | TAC-R | 0.2 µg/mL
O=[N+]([O-])c1cn2c(n1)OC[C@@H](OCc1ccc(CNc3ccc(OC(F)(F)F)cc3)cc1)C2 |  | low oxygen | MIC90 |  |  | 0.73 µM
S=C(S)N(C1CCCCC1)C1CCCCC1 |  | BACTEC | MIC |  | H37Rv | ≥12.5 µg/mL
NC(=O)c1cnccn1 |  |  | MIC |  | W296 | >2048 µg/mL
CNC(=S)NNc1ncnc2c1c(-c1ccc(Cl)cc1)cn2-c1ccc(C)cc1 |  | BACTEC | MIC bound |  | H37Rv | >12.5 µg/mL
CC[N+](C)(CC)CCNC(=O)c1cc([N+](=O)[O-])cc([N+](=O)[O-])c1 |  |  | MIC |  | N73 | 50 µg/mL
CCc1cccc(C)c1N1C(=O)C(=O)C(c2nc3ccccc3o2)/C(=N/NS(=O)(=O)c2ccc(C)cc2)C1=O |  | resazurin | MIC bound |  | H37Rv | >6.25 µg/mL
C=C(C)[C@@H]1CC[C@]2(C(=O)O)CC[C@]3(C)C(=CCC4[C@@]5(C)C[C@@H](O)[C@H](O)C(C)(C)C5CC[C@]43C)C12 |  |  | MIC |  |  | 50 µg/mL
c1ccc(P2(c3ccccc3)=NSN=S=N2)cc1 |  | BACTEC | MIC |  | H37Rv | 64 µg/mL
C=C(C)[C@@H]1CC[C@]2(C(=O)O)CC[C@]3(C)C(CCC4[C@@]5(C)[C@H](C=O)[C@@H](O)C(C)(C)[C@@H]5CC[C@]43C)C12 |  |  | MIC |  |  | 50 µg/mL

Repeating the final 8 entries:

smiles,tested at,read by,measure,setting,strain,value
S=C(S)N(C1CCCCC1)C1CCCCC1,,BACTEC,MIC,,H37Rv,≥12.5 µg/mL
NC(=O)c1cnccn1,,,MIC,,W296,>2048 µg/mL
CNC(=S)NNc1ncnc2c1c(-c1ccc(Cl)cc1)cn2-c1ccc(C)cc1,,BACTEC,MIC bound,,H37Rv,>12.5 µg/mL
CC[N+](C)(CC)CCNC(=O)c1cc([N+](=O)[O-])cc([N+](=O)[O-])c1,,,MIC,,N73,50 µg/mL
CCc1cccc(C)c1N1C(=O)C(=O)C(c2nc3ccccc3o2)/C(=N/NS(=O)(=O)c2ccc(C)cc2)C1=O,,resazurin,MIC bound,,H37Rv,>6.25 µg/mL
C=C(C)[C@@H]1CC[C@]2(C(=O)O)CC[C@]3(C)C(=CCC4[C@@]5(C)C[C@@H](O)[C@H](O)C(C)(C)C5CC[C@]43C)C12,,,MIC,,,50 µg/mL
c1ccc(P2(c3ccccc3)=NSN=S=N2)cc1,,BACTEC,MIC,,H37Rv,64 µg/mL
C=C(C)[C@@H]1CC[C@]2(C(=O)O)CC[C@]3(C)C(CCC4[C@@]5(C)[C@H](C=O)[C@@H](O)C(C)(C)[C@@H]5CC[C@]43C)C12,,,MIC,,,50 µg/mL